## Kdimer by position in the HIV-1 leader RNA

Data from the supplement of Ye et al. 2022, doi:10.1038/s41594-022-00746-2.

Sequence of the HIV-1 NL4-3 5' RNA, positions 1 to 437, as numbered in the source:
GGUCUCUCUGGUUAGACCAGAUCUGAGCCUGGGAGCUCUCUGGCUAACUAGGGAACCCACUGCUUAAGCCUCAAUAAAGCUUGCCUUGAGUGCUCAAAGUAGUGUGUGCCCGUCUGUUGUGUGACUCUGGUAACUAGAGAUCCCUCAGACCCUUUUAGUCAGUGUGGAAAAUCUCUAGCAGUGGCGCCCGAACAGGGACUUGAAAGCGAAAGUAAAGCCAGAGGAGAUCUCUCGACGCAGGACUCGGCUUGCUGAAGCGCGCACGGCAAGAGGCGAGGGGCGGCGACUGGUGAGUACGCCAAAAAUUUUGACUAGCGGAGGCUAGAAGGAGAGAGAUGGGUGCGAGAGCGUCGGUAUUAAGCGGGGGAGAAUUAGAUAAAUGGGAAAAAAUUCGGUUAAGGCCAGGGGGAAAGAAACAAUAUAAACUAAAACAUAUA

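Randomly mutated transcripts starting with one, two or three G (1G, 2G, 3G), capped or uncapped, were folded for 30 min at 37 °C. Monomer and dimer bands were cut from native gels after folding in high salt (300 mM KCl, 5 mM MgCl2) or low salt (40 mM KCl, 0.1 mM MgCl2). Mutation frequencies in the two bands give Kdimer.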

Scale: median log2 Kdimer over the changes at a position; positive = changes inhibit dimerization, negative = changes enhance it. One numbering serves 1G, 2G and 3G. A position is written with its base where known. The source gives no letters past position 437.

position | domain | 2G capped high-salt | 2G capped low-salt | 2G uncapped high-salt | 2G uncapped low-salt
493 | none | 0.15 | 0.13 | 0.07 | 0.07
494 | none | 0.03 | 0.13 | 0.08 | 0.04
495 | none | 0.07 | 0.10 | -0.01 | 0.22
496 | none | -0.09 | 0.04 | 0.10 | 0.04
497 | none | 0.05 | -0.04 | 0.01 | -0.05
498 | none | 0.08 | -0.06 | 0.04 | -0.04
499 | none | -0.01 | 0.00 | 0.04 | 0.09
500 | none | -0.11 | -0.12 | -0.14 | -0.04
501 | none | 0.18 | -0.01 | 0.09 | 0.13
502 | none | -0.02 | 0.08 | -0.11 | 0.14
503 | none | 0.04 | -0.02 | 0.04 | -0.02
504 | none | 0.05 | 0.03 | -0.02 | 0.11
505 | none | -0.07 | 0.06 | -0.10 | 0.12
506 | none | -0.05 | 0.14 | -0.04 | 0.18
507 | none | 0.09 | -0.09 | 0.05 | -0.07
508 | none | 0.09 | 0.06 | 0.15 | 0.00
509 | none | -0.01 | 0.05 | 0.05 | -0.07
510 | none | 0.01 | 0.08 | -0.03 | 0.02
511 | none | 0.03 | 0.05 | 0.04 | 0.08
512 | none | -0.13 | -0.03 | 0.06 | -0.11
513 | none | -0.01 | -0.11 | 0.04 | -0.09
514 | none | 0.01 | -0.10 | -0.03 | -0.06
515 | none | -0.05 | -0.03 | 0.01 | -0.01